Laboratory results taken from paper PMC3102704, “New Classes of Alanine Racemase Inhibitors Identified by High-Throughput Screening Show Antimicrobial Activity against Mycobacterium tuberculosis” (PLoS ONE, 2011).

Tested on: HeLa cells
Experiment: Compound cytotoxicity, WST-1 Cell Proliferation Reagent
Type: cell-based
Details: TC50 in HeLa cells / MIC against M. tuberculosis
Method: HeLa cells were grown to confluence overnight (37°C, 5% CO2) in Dulbecco's Modified Eagle Medium with 10% fetal bovine serum (Invitrogen, Carlsbad, CA). The following day, 3000 cells were plated into each well of a 96-well plate and grown overnight. Compounds were diluted in culture medium and added to the cells to yield final concentrations of 100, 50, 25, 12.5, and 6.25 µg/ml. The cells were exposed to the compounds for 48 hours, after which the effect on cells was determined using the WST-1 Cell Proliferation Reagent (Roche Applied Science, Indianapolis, IN) according to manufacturer's protocols. Absorbance at 450 nm was used to calculate percent cytotoxicity with respect to a DMSO solvent control. The results were fitted onto a sigmoidal dose-response curve using Prism software to calculate the TC50 (compound concentration that causes 50% cell death).

Compound	Ti = TC50/MIC
CCOC(=O)CCSc1ccccn1 [L2-04, ethyl 3-(pyridin-2-ylthio)propanoate]	4
CS(=O)(=O)c1ncc(Cl)c(C(=O)NCc2ccccc2)n1 [L2-05, N-benzyl-5-chloro-2-methylsulfonylpyrimidine-4-carboxamide]	2
COc1ccc(NC(=O)c2nc(S(C)(=O)=O)ncc2Cl)cc1Cl [L2-06, 5-chloro-N-(3-chloro-4-methoxyphenyl)2(methylsulfonyl)pyrimidine-4carboxamide]	4
COC(=O)c1cccc(C(=O)Oc2ccc(OC(=O)c3cccc(C(=O)OC)n3)c(Cl)c2)n1 [L2-10, 6-O-[3-chloro-4-(6-methoxycarbonylpyridine-2-carbonyl)oxyphenyl]2-O-methyl pyridine-2,6-dicarboxylate]	12
S=C(Cc1ccccc1)N1CCCCC1 [L2-12, 2-phenyl-1-piperidin-1-ylethanethione]	14
CCOc1ccc(CCNC(=O)Cn2sc3nc(C)cc(C)c3c2=O)cc1 [L2-13, 2-(4,6-dimethyl-3-oxo-[1], [2]thiazolo[5,4-b]pyridin-2-yl)-N-[2-(4-ethoxyphenyl)ethyl]acetamide]	2
O=C1Nc2ccccc2C(=O)C1(O)O [L2-16, 3,3-dihydroxy-1H-quinoline-2,4-dione]	1
